A mixed list of measured activities; the numbers were collected in NIAID ChemDB.

Inhibition is in % at the dose shown (toxicity tests: loss of growth or viability). ECn is the concentration giving n% inhibition of infection, replication or growth. ICn: concentration for n% inhibition. Rows are shuffled and stem from different studies. Blank or dashed fields: not listed here.

compound,strain or isolate,target,measure,dose,test,cell line,species,result
Nc1nc(=O)n([C@@H]2C=C(CO)[C@@H](O)[C@H]2O)cc1F,MPX,,EC50,,culture,MK2,Monkeypox virus,0.61 µg/mL
CC[C@H](C)[C@H](NC(=O)c1ccc2c(c1)nc(-c1ccccn1)n2C1CCCCC1)C(=O)O,,RNA-dependent RNA polymerase,IC50,,target,,Poliovirus,>25 µM
O=c1cnn([C@@H]2O[C@H](CO)[C@@H](O)[C@H]2O)c(=O)[nH]1,,,EC50,,culture,3T3,Cowpox virus,19 µM
Nc1nccc2c1ncn2[C@@H]1C=C(CO)[C@@H](O)[C@H]1O,,,EC50,,culture,LLC-MK2,Cowpox virus,>100 µg/mL
O=C(N[C@H](C(=O)O)c1c[nH]c2ccc(O)cc12)c1ccc2c(c1)nc(-c1ccc(N3CCCC3)cc1)n2C1CCCCC1,,RNA-dependent RNA polymerase,IC50,,target,,Poliovirus,>25 µM
NC(=O)c1c[se]c([C@@H]2O[C@H](CO)[C@@H](O)[C@H]2O)n1,Trinidad donkey,,EC50,,culture,VERO 76,Venezuelan equine encephalitis virus,0.5 µg/mL
CCCCCCCCCCCCCCCCCC(=O)OC[C@@H](COP(=O)(O)OCCNCCO[C@@]1(C(=O)O)O[C@@H]([C@H](O)[C@H](O)CO)[C@H](NC(C)=O)[C@@H](O)[C@H]1F)OC(=O)CCCCCCCCCCCCCCCCC,H3N2 A/DUCK/24/5/76,Sialidase,IC50,,target,,Influenza A virus,180 µM
O=C(O)CCc1ccc(C[C@H](NC(=O)c2ccc3c(c2)nc(-c2ccoc2)n3C2CCCCC2)C(=O)O)cc1,,RNA-dependent RNA polymerase,IC50,,target,,Poliovirus,>25 µM
Nc1ccn(C[C@@H](CO)OCP(=O)(O)O)c(=O)n1,Isolate V74-227,,EC50,,culture,VERO,Variola virus,10 µg/mL
O=c1[nH]cnc2c1ncn2[C@@H]1C=C(CO)[C@@H](O)[C@H]1O,7124,,EC50,,culture,MK2,Variola virus,>100 µg/mL
CCCCCCCCCCCCC/C=C/[C@@H](O)[C@H](CO[C@@H]1O[C@H](CO)[C@H](O)[C@H](OS(=O)(=O)O)[C@H]1O)NC(=O)CCCCCCCCCCCCCCCCCCCCCCC,H1N1 A/swine/Wisconsin/15/30,Sialidase,inhibition,200 µM,target,,Influenza A virus,80.1%
Nc1ccn(C[C@H]2COP(=O)(O)CO2)c(=O)n1,Isolate Yamada,,EC50,,culture,VERO,Variola virus,28.2 µg/mL
O=C(NC1CCCC(NC(=O)[C@@H]2CCCC[C@@H]2C(=O)O)C1)c1ccc2c(c1)nc(-c1ccoc1)n2C1CCCCC1,,RNA-dependent RNA polymerase,IC50,,target,,Poliovirus,>25 µM
COc1c(C)c2c(c(O)c1C/C=C(\C)CCC(=O)O)C(=O)OC2,,,EC50,,culture,3T3,Camelpox virus,0.3 µM
CC1=C(c2nc3cc(C(=O)N[C@@H](Cc4c[nH]c5ccc(O)cc45)C(=O)O)ccc3n2C2CCCCC2)CN=N1,,RNA-dependent RNA polymerase,IC50,,target,,Poliovirus,>25 µM
CCCCCCCCCCCCCCCCCC(=O)OC[C@@H](COP(=O)(O)OCCNCCO[C@@]1(C(=O)O)O[C@@H]([C@H](O)[C@H](O)CO)[C@H](NC(C)=O)[C@@H](O)[C@H]1F)OC(=O)CCCCCCCCCCCCCCCCC,H4N1 A/DUCK/HK/849/80,Sialidase,IC50,,target,,Influenza A virus,125 µM

Repeating the first 2 entries:

compound	strain or isolate	target	measure	dose	test	cell line	species	result
Nc1nc(=O)n([C@@H]2C=C(CO)[C@@H](O)[C@H]2O)cc1F	MPX		EC50		culture	MK2	Monkeypox virus	0.61 µg/mL
CC[C@H](C)[C@H](NC(=O)c1ccc2c(c1)nc(-c1ccccn1)n2C1CCCCC1)C(=O)O		RNA-dependent RNA polymerase	IC50		target		Poliovirus	>25 µM